Results deposited as PubChem BioAssay AID1259414 (Drosophila RNAi Screening Center, 2018)

Screen: 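Genome-wide screen for host control of endosymbiont load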 (primary screen)
Cells: Drosophila JW18 cells infected with Wolbachia
Reagents: long dsRNA against Drosophila genes, 0.25 µg dsRNA per well of a 384-well plate
Time to read-out: 5 days
Conditions: cells persistently infected with Wolbachia before knock-down; no added drug
Read-out: 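Imaged fluorescence in situ signal for Wolbachia 23S rRNA per DAPI-counted host cell, given as a robust z-score within each plate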
Direction: Wolbachia per cell robust z: higher = more Wolbachia per host cell than the plate typical
Rule for the call: 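Hit when robust z is 1.5 or more, or -1.5 or less, in at least two of three replicates; excludes dsRNAs with several or no targets, genes not expressed in JW18 and well A1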
The screen tested about 24,000 reagents; this is a random part of those with a known target gene and a result. Of all reagents, about 1,210 (5%) got an active call. 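Inactive calls also include excluded dsRNAs with several or no targets, genes unexpressed in JW18, and well A1, regardless of score.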 Reagents against one gene are numbered here. A plus sign joins genes that one reagent is predicted to hit.

The opening 11 entries, ahead of the listing:
gene,reagent no.,"Wolbachia per cell robust z, rep 1","Wolbachia per cell robust z, rep 2","Wolbachia per cell robust z, rep 3",outcome
CG11714,1,0.615,-1.16,-0.682,inactive
CG5969,1,0.729,1.14,0.931,inactive
CG5969,2,-2.11,-1.48,-0.222,inactive
CG15631,1,-0.205,-0.792,-0.0713,inactive
CG31960,1,-2.6,-1.04,0.261,inactive
CG31960,2,-0.302,0.668,0.0191,inactive
TyrR,1,-0.178,-0.718,-0.216,inactive
GstE3,1,-0.282,-0.55,-0.359,inactive
Mlf,1,1.07,2.43,1.53,active
Mlf,2,-0.68,0.193,-0.891,inactive
bun,1,-0.9,-1.36,-1.01,inactive

The list itself, repeating the preview:
gene,reagent no.,"Wolbachia per cell robust z, rep 1","Wolbachia per cell robust z, rep 2","Wolbachia per cell robust z, rep 3",outcome
CG11714,1,0.615,-1.16,-0.682,inactive
CG5969,1,0.729,1.14,0.931,inactive
CG5969,2,-2.11,-1.48,-0.222,inactive
CG15631,1,-0.205,-0.792,-0.0713,inactive
CG31960,1,-2.6,-1.04,0.261,inactive
CG31960,2,-0.302,0.668,0.0191,inactive
TyrR,1,-0.178,-0.718,-0.216,inactive
GstE3,1,-0.282,-0.55,-0.359,inactive
Mlf,1,1.07,2.43,1.53,active
Mlf,2,-0.68,0.193,-0.891,inactive
bun,1,-0.9,-1.36,-1.01,inactive
bun,2,-0.871,0.263,-0.971,inactive
bun,3,-2.18,-0.499,0.263,inactive
AIMP1,1,-0.00991,-0.721,0.247,inactive
AIMP1,2,-0.0814,-0.435,-0.37,inactive
CG13133,1,0.161,0.814,-0.475,inactive
CG33469,1,0.262,-0.293,-0.742,inactive
CG9631,1,1.95,-1.1,-1.1,inactive
CG12994,1,-2.58,1.37,0.871,inactive
PolZ1,1,1.74,1.45,0.153,inactive
PolZ1,2,0.869,-0.0831,0.656,inactive
CG43050,1,-0.734,-0.458,-0.831,inactive
org-1,1,-3.2,-3.05,-1.19,active
org-1,2,0.615,0.675,0.264,inactive
CG10862,1,0.765,0.0892,0.363,inactive
puf,1,-0.542,-0.449,-1.35,inactive
Mulk,1,-1.07,-7.6,0.789,inactive
COX5B,1,0.481,1.02,0.818,inactive
CG4611,1,-0.224,-0.0426,-0.335,inactive
CG4611,2,0.842,-0.595,-0.665,inactive
CG4611,3,1.54,-0.122,0.358,inactive
ouib,1,0.458,0.0265,-0.222,inactive
CG34279,1,0.131,0.0879,0.939,inactive
VAChT,1,-0.624,-0.531,-0.515,inactive
VAChT,2,0.0694,0.062,-0.225,inactive
VAChT,3,-0.155,-0.608,-1.01,inactive
simj,1,-7.26,-0.315,-0.714,inactive
simj,2,1.43,-0.671,0.617,inactive
simj,3,0.486,0.923,1.21,inactive
pygo,1,1.15,1.91,0.645,inactive
pygo,2,-0.186,-0.508,-0.8,inactive
NdufV3,1,0.834,-0.212,0.502,inactive
NdufV3,2,-1.31,-1.41,-0.0938,inactive
Lrch,1,-0.929,-3.29,0.0498,inactive
Lrch,2,-0.237,1.09,1.02,inactive
CG9581,1,-3.73,-1,-3.63,active
CG9581,2,-0.07,0.829,0.237,inactive
Cyp28d2,1,0.0921,-0.283,1.19,inactive
Cyp28d2,2,0.993,0.23,0.657,inactive
Rbpn-5,1,-5.48,0.243,-4.53,active
Rbpn-5,2,-0.85,-1.04,-1.04,inactive
CAP,1,0.696,0.891,-0.67,inactive
CAP,2,-3.73,0.615,0.643,inactive
CAP,3,-0.273,0.738,0.53,inactive
CAP,4,-1.14,0.126,-2.1,inactive
CAP,5,1.01,-1.59,-0.382,inactive
CG4892,1,-0.627,-1.17,-0.44,inactive
CG33159,1,0.224,0.137,-0.816,inactive
CG15025,1,0.648,-0.77,-1.87,inactive
AdoR,1,0.439,0.941,-0.486,inactive
AdoR,2,0.0766,-1.2,0.512,inactive
CG33669 + CG33664 + CG33666 + 3 more,1,-0.764,-4.37,0.136,inactive
Cse1,1,1.18,0.881,0.651,inactive
Cse1,2,1.14,0.63,3.11,inactive
CG14478,1,-2.96,0.0465,0.483,inactive
bdl,1,-1.02,-0.64,-0.679,inactive
oxt,1,0.456,-0.434,0.0215,inactive
neur + asRNA:CR31429,1,-0.39,-1.36,-2.12,inactive
neur + asRNA:CR31429,2,-2.69,0.978,0.351,inactive
CG31195,1,0.759,0.757,0.00385,inactive
CG9192,1,0.759,0.408,0.0509,inactive
CG1946,1,0.213,0.711,0.0997,inactive
CG1946,2,-0.805,-0.127,0.811,inactive
mTor,1,0.647,-1.32,1.83,inactive
mTor,2,0.478,1.85,1.04,inactive
bys,1,-0.386,0.904,-0.286,inactive
bys,2,0.421,-0.818,-1.61,inactive
CG42541,1,0.773,-1.42,-1.18,inactive
CG42541,2,0.523,1.31,0.581,inactive
CG42541,3,0.652,0.266,-0.33,inactive
CG42541,4,0.17,0.0835,0.847,inactive
haf,1,0.407,1.1,-1.14,inactive
Ntf-2r,1,-0.126,0.93,1.66,inactive
DIP2,1,-1.13,-0.599,1.01,inactive
Targ3 + park,1,-1.62,-0.818,0.604,inactive
Grl36a,1,-1.84,-1.53,-0.918,inactive
yellow-f,1,0.8,0.436,0.846,inactive
yellow-f,2,0.275,-4.52,0.511,inactive
